Pooled drug test results. Numbers come from NIAID ChemDB, via PubChem.

Percent inhibition refers to the dose given; in toxicity tests it is the harm to the cells.

compound | species | strain | endpoint | kind | mutations | method | cell line | protein | dose | result
CCOC(=O)Nc1cc2[nH]c(-c3ccc(OC)cc3)nc2c(NC(c2ccccc2)c2ccccc2)n1 | Encephalitozoon intestinalis | - | inhibition | culture | - | - | RK-13 | - | 1 µg/mL | 51.5%
CCN(C(=O)OCc1ccccc1)C1CCN(CC[C@](C)(CN(C)S(=O)(=O)c2ccccc2)c2ccccc2)CC1 | - | - | fold resistance | target | CCR5-Y108A | radiometric | - | CCR5 | - | 252.5
COc1cc(C[C@H](C)[C@H](C)Cc2ccc(O)c(O)c2)ccc1O | Candida albicans | CCC 127-2000 | MIC50 | culture | - | broth dilution | - | - | - | 31.25 µg/mL
Cc1cn([C@@H]2O[C@H](CO[Si](C)(C)C(C)(C)C)C3(OS(=O)(=O)C=C3N)[C@H]2O[Si](C)(C)C(C)(C)C)c(=O)n(C)c1=O | HIV | - | fold resistance | target | RT-N137D | nucleotide incorporation / radiometric | - | Reverse transcriptase | - | 0.75
O=C(Nc1nnc(NCCc2c[nH]c3ccccc23)s1)c1ccc2c(c1)C(=O)OC2=O | Human cytomegalovirus | - | IC50 | target | - | - | - | Polymerase | - | <25 µM
C#CC[C@@H](C(=O)N[C@H](/C=C/C(=O)OCC)C[C@@H]1CCNC1=O)n1cccc(NC(=O)c2cc(C)on2)c1=O | Rhinovirus | Serotype 45 | EC50 | culture | - | cytopathic effect / XTT | H1-HELA | - | - | 0.02 µM
O=C(Nc1nnc(NC2CCCCCC2)s1)c1c(Cl)cccc1Cl | Human cytomegalovirus | - | IC50 | target | - | - | - | Polymerase | - | >25 µM
CCCSc1ccc2nc(NC(=O)OC)[nH]c2c1 | Vittaforma corneae | - | inhibition | culture | - | - | RK-13 | - | 1 µg/mL | 89.2%
CCCCCCCC/C=C/CCCCCCCC(=O)Nc1nnc(NCCC2CCCN2C)s1 | Human cytomegalovirus | - | IC50 | target | - | - | - | Polymerase | - | <25 µM
O=C(NC(=O)c1c(F)cccc1F)Nc1cc(Cl)c(OC(F)(F)C(F)C(F)(F)F)cc1Cl | Vittaforma corneae | - | inhibition | culture | - | - | RK-13 | - | 5 µg/mL | 40.9%
N#Cc1ccc(C(=O)Nc2nnc(NCc3ccc(F)cc3)s2)cc1 | Human cytomegalovirus | - | IC50 | target | - | - | - | Polymerase | - | <25 µM
COc1ccc2cc3[n+](cc2c1OC)CCc1cc2c(cc1-3)OCO2 | Vittaforma corneae | - | inhibition | culture | - | - | RK-13 | - | 0.1 µg/mL | 42.2%
Nc1nc2c(ncn2[C@H]2CC[C@@H](COP(=O)(O)OP(=O)(O)OP(=O)(O)O)O2)c(=O)[nH]1 | HIV | - | fold resistance | target | RT-N137D | nucleotide incorporation / radiometric | - | Reverse transcriptase | - | 2.6
O=C(Nc1nnc(NC2CCc3ccccc32)s1)c1c(Cl)cccc1Cl | Human cytomegalovirus | - | IC50 | target | - | - | - | Polymerase | - | <25 µM
CCOC(=O)Nc1cc2c(nc(-c3ccccc3)c3nnnn32)c(NC(c2ccccc2)c2ccccc2)n1 | Encephalitozoon intestinalis | - | inhibition | culture | - | - | RK-13 | - | 0.1 µg/mL | 52.5%
CCO/N=C/c1ccc(OCCC2CCN(c3ccc(C)nn3)CC2)cc1 | Rhinovirus | 1200 (ICAM-1 receptor group 33) | EC50 | culture | - | neutral red | KB | - | - | 0.001 µM
CC[C@H]1C(=O)Nc2ccc(F)cc2N1C(=O)OC(C)C | HIV | - | IC50 | target | RT-N137H | nucleotide incorporation / radiometric | - | Reverse transcriptase | - | 0.011 µM
CCOC(=O)Nc1cc2c(c(N)n1)N=C(c1cccc(OC)c1)CS2 | Encephalitozoon intestinalis | - | inhibition | culture | - | - | RK-13 | - | 0.01 µg/mL | 9.1%
CO[P@](=O)(c1cc(C)cc(/C=C/C#N)c1)c1c(C(N)=O)[nH]c2ccc(Cl)c(F)c12 | Human | - | IC50 | host protein | - | - | - | DNA polymerase gamma | - | 118.5 µM
O=C(c1ccccc1Cl)N1C[C@H](CN2CCC(O)(CCCc3ccc(-c4nn[nH]n4)cc3)CC2)[C@@H](c2ccccc2)C1 | - | - | fold resistance | target | CCR5-D276A | radiometric | - | CCR5 | - | 0.45
Cc1ccnc2c1NC(=O)c1cccnc1N2C1CC1 | HIV-1 | - | EC95 | culture | RT-D67N K70R T215Y K219Q | - | MT-4 | - | - | 0.2 µM
CO[C@H]1[C@@H](OC(=O)/C=C/C=C/C=C/C=C/C(=O)O)CC[C@@]2(CO2)[C@@H]1[C@@]1(C)O[C@@H]1CC=C(C)C | Encephalitozoon intestinalis | - | inhibition | culture | - | - | RK-13 | - | 0.0005 µg/mL | 62.9%
COc1ccc(CNc2nnc(NC(=O)c3ccc(C#N)cc3)s2)cc1OC | Human cytomegalovirus | - | IC50 | target | - | - | - | Polymerase | - | >25 µM
O=C(c1ccccc1)N1C[C@H](CN2CCC(c3ccccc3)CC2)[C@@H](c2ccccc2)C1 | - | - | fold resistance | target | CCR5-Y251A | radiometric | - | CCR5 | - | 11
O=C(Nc1nnc(NCCCNC2CCCCC2)s1)c1ccc(C(F)(F)F)cc1 | Human cytomegalovirus | - | IC50 | target | - | - | - | Polymerase | - | <25 µM
O=C(Nc1ncc([N+](=O)[O-])s1)c1ccccc1O | Encephalitozoon intestinalis | - | inhibition | culture | - | - | RK-13 | - | 0.01 µg/mL | 30%

Again, the opening 2 rows:

| compound | species | strain | endpoint | kind | mutations | method | cell line | protein | dose | result |
|---|---|---|---|---|---|---|---|---|---|---|
| CCOC(=O)Nc1cc2[nH]c(-c3ccc(OC)cc3)nc2c(NC(c2ccccc2)c2ccccc2)n1 | Encephalitozoon intestinalis | - | inhibition | culture | - | - | RK-13 | - | 1 µg/mL | 51.5% |
| CCN(C(=O)OCc1ccccc1)C1CCN(CC[C@](C)(CN(C)S(=O)(=O)c2ccccc2)c2ccccc2)CC1 | - | - | fold resistance | target | CCR5-Y108A | radiometric | - | CCR5 | - | 252.5 |

ECn: concentration that inhibits the pathogen or its effect by n%. MIC50, MIC90 and the like: level of inhibition, or share of isolates inhibited. Neighbouring rows are from separate reports. ICn is the concentration giving n% inhibition. An empty or dashed field is not shown. Fold resistance has wild type as its base.